Tested on: luciferase-transfected Leishmania donovani
Assay: Anti-leishmanial efficacy (EC50) in the ex vivo splenic explant model
Format: cell-based
Conditions: CC50 HepG2 / EC50 ex vivo model
Description: To establish the plate assay for drug screening, the spleens from 2 infected hamsters were aseptically removed and placed in a Petri dish containing 5 mL of Collagenase D (Roche) at 2 mg/mL of buffer (10 mM Hepes pH 7.4, 150 mM NaCl, 5 mM KCl, 1 mM MgCl2, 1.8 mM CaCl2). The spleen was infiltrated by injection with approximately 2 mL of Collagenase solution, the tissue was cut into small pieces using sharp scissors, and incubated for 20 minutes at 37°C. The cell suspension and remaining tissue fragments were gently passed through a 100 µm cell strainer (B–D) to obtain a single cell suspension, which was washed twice by centrifugation (500 g for 7 min at 4°C) and re-suspended in culture medium composed of DMEM (Gibco), 5% FBS, 1 mM Sodium pyruvate (Gibco), 1X MEM amino acids solution (Sigma), 0.02% v/v/EDTA, 10 mM HEPES buffer (Cellgro) and 100 IU/mL Penicillin/100 […] Streptomycin solution (Cellgro).
The anti-leishmanial efficacy of the compounds was determined using the splenic explant model in a 96-well plate format. […] Because variation in the parasite burden between different explant cultures was expected, the concentration of cells used in each experiment was adjusted to give approximately 100 counts by luminometry (equivalent to ∼240,000 parasites). The number of surviving parasites was determined by luminometry as described above.

Substance	IVTI (in vitro therapeutic index) [ratio]
7-(2-(6-Ethoxy-1-methyl-1.lambda.~5~-quinolin-2-yl)vinyl)-5-methyl-8-quinolinol; Quinolinium, {6-ethoxy-2-[2-(8-hydroxy-5-methyl-7-quinolyl)vinyl]-1-methyl-} iodide	8.1
Benzalkonium Chloride [reference compound]	6.1
